Measured values published in publication PMC3169552, “Membrane Remodeling by the Double-Barrel Scaffolding Protein of Poxvirus” (2011).

Target: His6-tagged vaccinia virus D13 D513G (vaccinia virus, Western Reserve strain)
Assay: crystal structure

His6-tagged vaccinia virus D13 D513G (natural protein)
stoichiometry N: 3
